Pooled drug test results. Numbers come from NIAID ChemDB, via PubChem.

Shared fields: growth or infection tests; agent: HIV-1

Rows are shuffled and stem from different studies. Two numbers with a dash give a range or band. ECn is the concentration giving n% inhibition of infection, replication or growth. An empty or dashed field is not shown.

compound	cell line	method	mutations	strain or isolate	measure	result
C[C@H]1C(=O)Nc2ccc(Cl)cc2CN1Cc1ccco1	MT-4	cytopathic effect / MTT	-	-	EC50	19.7 µM
C[C@H]1/C=C/[C@@]2(C)CC[C@@H](C(C)(C)O)[C@@H]2[C@@H](O)C[C@](C)(O)/C=C/C1	Macrophage + Macrophages	p24	-	95BRSP007 R5X4	EC50	1.85 µM
Fc1cccc(F)c1C1OCc2nc3ccccc3n21	CEM	cytopathic effect / MTT	RT-Y181C	Pyridinone-resistant (RT Y181C)	EC50	≥13.85 µM
Cc1cn([C@H]2C[C@H](N=[N+]=[N-])[C@@H](COP(=O)(OCCSC(=O)C(C)C)OCCSC(=O)C(C)C)O2)c(=O)[nH]c1=O	MOLT-4/8	p24	-	RF	EC50	0.018 µM
Nc1ncnc2c1ncn2C=C1CC1CO	MT-4	cytopathic effect / MTT	-	IIIB Laboratory clade B	EC50	>100 µM
CCOC(=O)c1[nH]c2ccc(Cl)cc2c1Cc1ccccc1	293T	luciferase	-	-	EC50	0.24 µM
O=C(O)P(=O)(O)O	MT-2	cytopathic effect / MTT	-	LAI-VIRAL CLONE	EC50	28 µM
CCCCCC/C=C\C/C=C\CCCCCCC(=O)O[C@H](COC(=O)CCCCCCCCCCCCCCC)COP(=O)(O)OC1[C@@H](O)[C@H](O)C(O)[C@H](O)[C@@H]1O	MOLT-4	p24 / ELISA	-	-	EC50	38 µM
COC(=O)[C@H](C)OP(=O)(OC[C@@H]1C=C[C@H](n2cc(C)c(=O)[nH]c2=O)O1)Oc1ccccc1	CEM	-	-	-	EC50	40 µM
CCCCCCCCCc1ccc(OCCOCCOCCOCCOCCOCCOCCOCCOCCO)cc1	PBMC	p24	-	-	EC50	2.195 µM
Cc1cn([C@@H]2O[C@H](CO[Si](C)(C)C(C)(C)C)C3(OS(=O)(=O)C=C3N)[C@H]2O[Si](C)(C)C(C)(C)C)c(=O)n(CC(=O)O)c1=O	-	-	-	-	EC50	0.03–0.76 µM
Cc1cn([C@@H]2O[C@H](CO[Si](C)(C)C(C)(C)C)C3(OS(=O)(=O)C=C3N)[C@H]2O[Si](C)(C)C(C)(C)C)c(=O)n(C)c1=O	CEM	syncytia	RT-E138K	IIIB TSAO-T(RT-E138K)	EC50	>50 µM
Nc1ncnc2c1ncn2/C=C1/C[C@H]1CO	MT-4	cytopathic effect / MTT	-	IIIB	EC50	13 µM
O=C1N(CCCCCO)[C@H](Cc2ccccc2)[C@H](O)[C@@H](O)[C@@H](Cc2ccccc2)N1Cc1cccc(CO)c1	MT-2	-	-	-	EC50	<0.076 µM
COC(=O)[C@H](C)NP(=O)(OC[C@H]1O[C@@H](n2cc(C)c(=O)[nH]c2=O)C[C@@H]1N=[N+]=[N-])Oc1ccc(Br)cc1	PBMC	p24	-	-	EC50	0.006 µM
O=S(=O)(O)c1cc(O)c2c(NS(=O)(=O)c3ccc(-c4ccc(S(=O)(=O)Nc5cc(S(=O)(=O)O)cc6cc(S(=O)(=O)O)cc(O)c56)cc4)cc3)cc(S(=O)(=O)O)cc2c1	MT-4	cytopathic effect / MTT	-	IIIB	EC50	8.3 µM
O=C1N(CCCCCO)[C@H](Cc2ccccc2)[C@H](O)[C@@H](O)[C@@H](Cc2ccccc2)N1Cc1cccc(O)c1	MT-2	-	-	-	EC50	<0.036 µM
COC(=O)[C@H](C)NP(=O)(OC[C@H]1O[C@@H](N2C(=O)NC(=O)C(C)(Br)C2OC)C[C@@H]1N=[N+]=[N-])Oc1ccc(F)cc1	PBMC	p24	-	-	EC50	0.07 µM
CCc1c(Sc2cccc3ccccc23)nc(SCC(=O)c2ccc(F)cc2)[nH]c1=O	MT-4	cytopathic effect / MTT	-	IIIB	EC50	3.33 µM
CCCCCCCCCCCCCCCC(=O)Nc1cc(S(=O)(=O)O)cc2cc(S(=O)(=O)O)cc(O)c12	MT-4	cytopathic effect / MTT	-	IIIB	EC50	37 µM
Nc1ccn([C@H]2CC[C@@H](CO)O2)c(=O)n1	MOLT-4/8	p24	-	LAV1-BRU	EC50	0.21 µM
C[C@H]1C(=O)Nc2ccc(Cl)cc2CN1CC(N)=O	MT-4	cytopathic effect / MTT	-	-	EC50	>934 µM
Cc1cc(C#N)cc(C)c1Oc1nc(Nc2ccc(C#N)cc2)nc(N)c1Br	MT-4	MTT	Y181C	IIIB	EC50	0.016 µM
O=C1N(CCCCCO)[C@H](Cc2ccccc2)[C@H](O)[C@@H](O)[C@@H](Cc2ccccc2)N1CC1CC1	MT-2	-	-	-	EC50	<0.814 µM
CC(C)=CCN1Cc2cccc3[nH]c(=S)n(c23)C[C@@H]1C	CEM	syncytia	RT-L100I E138K	IIIB TIBO R82913 STR-B02 (RT L100I E138K)	EC50	5 µM
Cc1cn([C@H]2C[C@H](N=[N+]=[N-])[C@@H](COP(=O)(OCCSC(=O)C(C)(C)C)OCCSC(=O)C(C)(C)C)O2)c(=O)[nH]c1=O	MOLT-4/8	p24	-	RF	EC50	0.012 µM
CCOC(=O)c1cccc(CN2C(=O)N(CCCCCO)[C@H](Cc3ccccc3)[C@H](O)[C@@H](O)[C@H]2Cc2ccccc2)c1	MT-2	-	-	-	EC50	<0.365 µM
CCCCCCCCCCCCCCCCOCCCOP(=O)(O)CO[C@H](CO)Cn1cnc2c(N)nc(N)nc21	MT-2	p24	-	LAI	EC50	0.04 µM
Cc1cn([C@@H]2O[C@H](CO[Si](C)(C)C(C)(C)C)C3(OS(=O)(=O)C=C3N)[C@H]2O[Si](C)(C)C(C)(C)C)c(=O)n(CCC[N+](C)(C)C)c1=O.[I-]	-	-	-	-	EC50	0.03–0.76 µM
CC(C)C[C@H](NC(=O)[C@H](Cc1ccccc1)C[C@H](O)[C@H](Cc1ccccc1)NC(=O)OC(C)(C)C)C(=O)N[C@@H](Cc1ccccc1)C(N)=O	H9	p24	-	IIIB	EC50	6 µM
Nc1ccn([C@H]2CC[C@@H](CO)O2)c(=O)n1	JM	syncytia	-	GB8	EC50	0.1 µM
CCc1c(C(=O)c2cc(C)cc(C)c2)n(CC2CC=CC2)c(=O)[nH]c1=O	CEM + CEM-SS	cytopathic effect / XTT	Y188C	NL4-3	EC50	0.06 µM
Cc1ccnc2c1NC(=O)c1cccnc1N2C1CC1	MT-4	-	RT-M41L T215Y K103N	-	EC50	<3 µM
O=C1N(CCCCO)[C@H](Cc2ccccc2)[C@H](O)[C@@H](O)[C@@H](Cc2ccccc2)N1CCCCO	MT-2	-	-	-	EC50	<22.7 µM
Nc1nc2c(ncn2[C@H]2CC[C@@H](CO)O2)c(=O)[nH]1	CEM	syncytia	-	IIIB	EC50	1 µM
O=c1[nH]c(=O)n(CCOCP(=O)(O)O)cc1F	MT-2	p24	-	LAI	EC50	>100 µM
Cc1cn([C@H]2C[C@H](N=[N+]=[N-])[C@@H](COP(=O)(Oc3ccc([N+](=O)[O-])cc3)Oc3ccc([N+](=O)[O-])cc3)O2)c(=O)[nH]c1=O	C8166	p24	-	IIIB	EC50	0.0032 µM
O=C(NO)c1ncc(CNCc2cccc(F)c2)c(CO)c1O	MT-4	MTT / absorbance	-	NL4-3	EC50	1 µM
Cc1cn([C@@H]2O[C@H](CO[Si](C)(C)C(C)(C)C)C3(OS(=O)(=O)C=C3N)[C@H]2O[Si](C)(C)C(C)(C)C)c(=O)n(CCCCO)c1=O	-	-	-	-	EC50	0.03–0.76 µM
CC(C)=CCN1Cc2cc(Cl)cc3[nH]c(=S)n(c23)C(=O)C1C	MT-4	cytopathic effect / MTT	-	-	EC50	>50 µM
CCCCCC/C=C\C/C=C\CCCCCCC(=O)O[C@H](COC(=O)CCCCCCCCCCCCCCC)COP(=O)([O-])OCC[N+](C)(C)C	MOLT-4	p24 / ELISA	-	-	EC50	>50 µM
CC1C(=O)Nc2ccccc2CN1CC1CCC1	MT-4	cytopathic effect / MTT	-	-	EC50	238 µM
Cc1cn([C@H]2C[C@H](N=[N+]=[N-])[C@@H](COP(=O)(Oc3ccccc3)Oc3ccccc3)O2)c(=O)[nH]c1=O	C8166	p24	-	IIIB	EC50	0.3 µM
Cc1c(C(C)c2c(F)cccc2F)nc(SC2CCCC2)[nH]c1=O	MT-4	cytopathic effect / MTT	-	IIIB	EC50	0.005 µM
Cc1cn([C@H]2C[C@H](N=[N+]=[N-])[C@@H](CO)O2)c(=O)[nH]c1=O	PBMC	p24	-	-	EC50	0.006 µM
CCc1c(Sc2cccc3ccccc23)nc(SCC(=O)c2ccccc2)[nH]c1=O	MT-4	cytopathic effect / MTT	-	IIIB	EC50	0.37 µM
COC1N(C2CC(N=[N+]=[N-])C(CO)O2)C(=O)NC(=O)C1(C)Br	PBMC	p24	-	-	EC50	0.006 µM
O=[N+]([O-])c1cccc(Cn2c(Br)nc3cc(Cl)c(Cl)cc32)c1	CEM + CEM-SS	plaque count / syncytia	-	IIIB	EC50	5.3 µM
Nc1nc(NC2CC2)c2ncn(CCOCP(=O)(O)O)c2n1	MT-2	p24	-	LAI	EC50	0.07 µM
CC(C)[C@H](NC(=O)c1ccc2ccccc2n1)C(=O)N[C@@H](Cc1ccccc1)[C@H](O)CN1CC[C@@H](OCc2ccncc2)C[C@H]1C(=O)NC(C)(C)C	H9	p24	-	IIIB	EC50	0.002 µM
Nc1ncnc2c1ncn2CCOCP(=O)(O)O	MT-2	p24	-	LAI	EC50	1.1 µM
CC(C)=CCN1Cc2ccccc2NC(=O)C1C	MT-4	cytopathic effect / MTT	-	-	EC50	29.6 µM
O=C1N(CCCCCCO)[C@H](Cc2ccccc2)[C@H](O)[C@@H](O)[C@@H](Cc2ccccc2)N1CCCCCCO	MT-2	-	-	-	EC50	<1.508 µM
Nc1nc(N)c2ncn(CCOCP(=O)(O)O)c2n1	MT-2	p24	-	LAI	EC50	0.15 µM
CC(=O)N[C@@H](CS)C(=O)O	U1 (HIV-1 LAV PMA stimulated) + U1	RT activity	-	LAV	EC50	<15000 µM
Nc1nc2c(ncn2[C@H]2CO[C@@H](CO)O2)c(=O)[nH]1	MT-2	cytopathic effect / XTT	-	LAI	EC50	2 µM
COC(=O)[C@H](C)NP(=O)(OC[C@H]1O[C@@H](n2cc(C)c(=O)[nH]c2=O)C[C@@H]1N=[N+]=[N-])Oc1ccc(OC)cc1	PBMC	p24	-	-	EC50	0.057 µM
Cc1cn([C@H]2C[C@H](N=[N+]=[N-])[C@@H](CO)O2)c(=O)[nH]c1=O	CEM + CEM-SS	plaque count / syncytia	-	C-691/H-112	EC50	0.002 µM
C[C@@H]1CN(C(=O)c2ccccc2)CCN1C(=O)C(=O)c1c[nH]c2nccc(OCCOCCOCCOCCOCCOCCn3cc(COCCOCCOCCOCCNc4ccc([N+](=O)[O-])cc4[N+](=O)[O-])nn3)c12	MT-2	MTT	-	IIIB	EC50	6.4 µM
CN[C@@H]1[C@H](O[C@@H]2OC[C@@H](O)[C@H](O)[C@H]2O)[C@@H](O)[C@H](O[C@H]2c3cc(C)c(C(=O)N[C@H](C)C(=O)O)c(O)c3-c3c(cc4c(c3O)C(=O)c3cc(OC)cc(O)c3C4=O)[C@@H]2O)O[C@@H]1C	PBMC	p24	-	NL4-3 X4	EC50	0.69 µg/mL
O=c1[nH]cnc2c1ncn2[C@H]1CC[C@@H](CO)O1	MT-4	p24	-	IIIB	EC50	<10 µM
O=c1[nH]cnc2c1ncn2[C@H]1CC[C@@H](CO)O1	MT-4	cytopathic effect / MTT	-	IIIB	EC90	11.3 µM
CC1NCc2ccccc2NC1=O	MT-4	cytopathic effect / MTT	-	-	EC50	>8.5 µM
COC(=O)[C@H](C)NP(=O)(OC[C@@H]1CC[C@H](N2C(=O)NC(=O)C(C)(Br)C2OC)O1)Oc1ccccc1	PBMC	p24	-	-	EC50	3.322 µM
Cc1cn([C@H]2C[C@H](N=[N+]=[N-])[C@@H](CO)O2)c(=O)[nH]c1=O	CEM	syncytia	RT-Y181C	IIIB nevirapine-resistant (RT Y181C)	EC50	0.005 µM
CC(C)=CCN1Cc2cc(Cl)ccc2NC(=O)C1c1ccccc1	MT-4	cytopathic effect / MTT	-	-	EC50	>100 µM
Fc1cccc(F)c1C1SCc2nc3ccccc3n21	CEM	cytopathic effect / MTT	RT-Y181C	Pyridinone-resistant (RT Y181C)	EC50	13.87 µM
Cc1cn([C@@H]2O[C@H](CO[Si](C)(C)C(C)(C)C)C3(OS(=O)(=O)C=C3N)[C@H]2O[Si](C)(C)C(C)(C)C)c(=O)n(CCBr)c1=O	-	-	-	-	EC50	0.03–0.76 µM
COC(=O)[C@H](C)NP(=O)(OC[C@H]1O[C@@H](N2C(=O)NC(=O)C(C)(Br)C2OC)C[C@@H]1N=[N+]=[N-])Oc1ccc(OC)cc1	PBMC	p24	-	-	EC50	0.05 µM
COc1c(C)c2c(c(O)c1C/C=C(\C)CCC(=O)O)C(=O)OC2	MT-2	cytopathic effect / XTT	-	LAI	EC50	>1 µM
Nc1ncnc2c1ncn2/C=C1/C[C@@H]1CO	MT-4	cytopathic effect / MTT	-	IIIB	EC50	50 µM
CC(C)(C)NC(=O)[C@@H]1CN(Cc2cccnc2)CCN1C[C@@H](O)C[C@@H](Cc1ccccc1)C(=O)N[C@H]1c2ccccc2C[C@H]1O	PBMC	p24	PR-L10V G48M F53L I54V	ESP2-4 (PR L10V G48M F53L I54V)	EC50	0.185 µM
O=C1N(CCCCCCCO)[C@H](Cc2ccccc2)[C@H](O)[C@@H](O)[C@@H](Cc2ccccc2)N1CCCCCCCO	MT-2	-	-	-	EC50	<9.013 µM
Nc1ncnc2c1ncn2[C@@H]1O[C@H](CO)[C@H]1CO	MT-4	cytopathic effect	-	IIIB	EC50	2.78 µM
O=C(NCCCCCN1C(=O)N(CCCCCNC(=O)c2ccncc2)[C@H](Cc2ccccc2)[C@H](O)[C@@H](O)[C@H]1Cc1ccccc1)c1ccncc1	MT-2	-	-	-	EC50	<9.903 µM
Nc1ccn([C@H]2CC[C@@H](CO)O2)c(=O)n1	ATH8	cytopathic effect	-	IIIB	EC50	0.2 µM
CCC(=CCN1Cc2c(Cl)cccc2NC(=O)C1C)CC	MT-4	cytopathic effect / MTT	-	-	EC50	5.6 µM
CN=C1CN=C(c2ccc[nH]2)c2cc(Cl)ccc2N1	MOLT-4	cytopathic effect / MTT	-	IIIB	EC50	≤0.3 µM